# Reference: PubChem BioAssay AID1259421 (Broad Institute, 2018)
# The list shows a part of the results, in another mix than the full data. Some salts or complexes appear as unconnected parts, following the source record. Calls of active or inactive are those of the source. Rule as the data show it: active = activity change below about -70%; inconclusive = no clear call, values can overlap the other calls; inactive = above that.
# Test: Toxoplasma gondii ME49Luc growth in HeLa cells, luciferase, no IFN-y, primary screen (AID 1259421)
# Conditions: T. gondii ME49Luc in HeLa, 72 h, stronger effect = lower value, concentration not given here
row,Compound,"activity change, negative = inhibition"
1,CN(C)CCS,inactive: 13.8%
2,C/C1=C2N=C(/C=C3N=C(/C(C)=C4\[N-][C@@](C)([C@@H]5N=C1[C@](C)(CCC(=O)NC[C@@H](C)OP(=O)(O)O[C@H]1[C@@H](O)[C@@H](n6cnc7cc(C)c(C)cc76)O[C@@H]1CO)[C@H]5CC(N)=O)[C@@](C)(CC(N)=O)[C@@H]4CCC(N)=O)[C@@](C)(CC(N)=O)[C@@H]\3CCC(N)=O)C(C)(C)[C@@H]/2CCC(N)=O.[C-]#N.[Co+2],inactive: -4.57%
3,C/C1=C2N=C(/C=C3N=C(/C(C)=C4\[N-][C@@](C)([C@@H]5N=C1[C@](C)(CCC(=O)NC[C@@H](C)OP(=O)(O)O[C@H]1[C@@H](O)[C@@H](n6cnc7cc(C)c(C)cc76)O[C@@H]1CO)[C@H]5CC(N)=O)[C@@](C)(CC(N)=O)[C@@H]4CCC(N)=O)[C@@](C)(CC(N)=O)[C@@H]\3CCC(N)=O)C(C)(C)[C@@H]/2CCC(N)=O.[C-]#N.[Co+3],inactive: 0.206%
